Results deposited as PubChem BioAssay AID624099 (ICCB-Longwood, 2012).
Shown is an unselected part of about 21,000 reagents tested. Over the whole deposit, 497 (2.4%) were called active. 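Higher z means weaker E2 silencing; only reporter increases were scored, and knock-downs that hurt cell survival may mask genuine repressor factors.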 A number with no mark means an inactive call.

- Assay: 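Human genes that papillomavirus E2 requires to repress the HPV18 LCR promoter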 (primary screen)
- System: human C33A cervical carcinoma cells (HPV-negative) stably expressing BPV1 E2 and an HPV18 LCR luciferase reporter
- Reagents: siRNA pool against human genes, 40 nM
- Time to read-out: 72 h
- Measurement: 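HPV18 LCR reporter light per well, converted to plate-wise z-scores that exclude control wells, and averaged over triplicate plates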
- Direction: mean z-score and z-score: higher = stronger reporter signal, weaker E2 silencing
- Call rule: 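Hit if mean z-score reaches 2 and two or more of three replicate z-scores also reach 2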

target | mean z-score | z-score, replicate A | z-score, replicate B | z-score, replicate C
ZNF624 | -1.1 | -0.89 | -0.73 | -1.68
MCUR1 | 0.18 | 0.02 | 0.38 | 0.13
UBAC2 | -0.27 | -0.15 | -0.41 | -0.25
MIF | -0.04 | -0.09 | 0.03 | -0.05
GSN | 0.57 | 0.85 | 0.37 | 0.48
KLHL4 | -1.37 | -1.25 | -1.54 | -1.31
FAM53B | 0.72 | 0.24 | 0.81 | 1.12
FNDC7 | -0.67 | -0.33 | -0.85 | -0.83
VNN2 | 1.15 | 0.76 | 1.37 | 1.3
LINC01344 | -0.21 | -0.36 | 0.09 | -0.35
MKX | -0.21 | – | 0.03 | -0.44
ZNF527 | -0.34 | -0.14 | -0.75 | -0.12
PREX2 | 0.69 | 0.84 | 0.47 | 0.77
NDC1 | 2.01 | 1.97 | 1.91 | 2.15
HS3ST4 | -0.18 | -0.15 | -0.36 | -0.04
UBQLN4P1 | 0.99 | 1.26 | 0.66 | 1.04
LEF1 | 1.91 | 2.22 | 1.8 | 1.73
FBXL19-AS1 | 1.57 | 1.48 | 1.44 | 1.8
TMEM18 | 0.34 | -0.1 | 0.42 | 0.7
ESRP1 | -0.39 | -0.46 | -0.39 | -0.31

Continued; the last 3 above are carried over.
target | mean z-score | z-score, replicate A | z-score, replicate B | z-score, replicate C
FBXL19-AS1 | 1.57 | 1.48 | 1.44 | 1.8
TMEM18 | 0.34 | -0.1 | 0.42 | 0.7
ESRP1 | -0.39 | -0.46 | -0.39 | -0.31
GOLGA3 | 0.11 | 0.32 | -0.17 | 0.18
LOC286177 | 0.14 | 0.12 | 0.03 | 0.27
DNAJC27-AS1 | -1.1 | -0.9 | -1.27 | -1.13
MAN1A1 | -0.12 | -0.19 | -0.08 | -0.1
SLC6A1 | -0.06 | 0.2 | -0.29 | -0.07
ST8SIA3 | -0.29 | -0.31 | -0.31 | -0.23
TMEM131 | 0.39 | 0.9 | 0.23 | 0.04
LMCD1-AS1 | 0.33 | 0.52 | 0.34 | 0.12
FMN2 | -0.26 | -0.65 | -0.15 | 0
GPR137B | 1.81 | 1.96 | 1.85 | 1.63
IL3RA | 0.19 | 0.3 | 0.07 | 0.19
ADRA2A | 0.02 | -0.24 | 0.04 | 0.26
CRB3 | 0.15 | 0.04 | 0.42 | 0
LOC387994 (retired record) | 0.19 | 0.1 | 0.41 | 0.08
FOXC1 | 1.25 | 1.43 | 0.93 | 1.37
ENAH | 0.08 | -0.02 | 0.05 | 0.22
METTL2A | 0.69 | 0.86 | 0.56 | 0.64
CD81 | 0.66 | 0.93 | 0.42 | 0.64
C3AR1 | -0.36 | -0.24 | -0.52 | -0.32
CDH1 | 0.95 | 0.4 | 1.14 | 1.33
TRIM25 | 0.81 | 0.66 | 0.81 | 0.97
BBX | -0.12 | -0.05 | -0.08 | -0.24
HMG20B | -1.11 | -1.17 | -1.18 | -0.99
SLF2 | 0.27 | 0.04 | 0.23 | 0.53
GNB4 | -0.62 | -0.11 | -0.79 | -0.95
TUBB | -0.39 | -0.25 | -0.49 | -0.42
C11orf24 | 0.78 | 0.66 | 1.53 | 0.14
INKA1 | 0.9 | 0.73 | 0.88 | 1.09
CATSPER1 | -0.85 | -0.87 | -0.79 | -0.9
LILRB4 | 0.79 | 0.67 | 0.86 | 0.84
ATP5MJ | -0.67 | -0.93 | -0.36 | -0.71
RILP | -0.26 | -0.11 | -0.04 | -0.64
RPS27A | -1.97 | -1.95 | -2.04 | -1.92
THAP2 | -0.85 | -0.9 | -0.76 | -0.88
USP49 | -1.17 | -1.13 | -1.14 | -1.25
LOC389905 (retired record) | 0.19 | -0.01 | 0.11 | 0.47
ABCC12 | 0.61 | 0.54 | 0.63 | 0.66
